Values from PubChem BioAssay AID624099 (ICCB-Longwood, 2012).
Screen: 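Human genes that papillomavirus E2 requires to repress the HPV18 LCR promoter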 (primary screen). Cells: human C33A cervical carcinoma cells (HPV-negative) stably expressing BPV1 E2 and an HPV18 LCR luciferase reporter. Knock-down reagent: siRNA pool against human genes, 40 nM. Duration: 72 h. Detection: 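HPV18 LCR reporter light per well, converted to plate-wise z-scores that exclude control wells, and averaged over triplicate plates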. Scale: mean z-score and z-score: higher = stronger reporter signal, weaker E2 silencing. Hit rule: 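Hit if mean z-score reaches 2 and two or more of three replicate z-scores also reach 2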.
Here is a random part of about 21,000 reagents tested. Over the whole deposit, 497 (2.4%) are marked active. 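Higher z means weaker E2 silencing; only reporter increases were scored, and knock-downs that hurt cell survival may mask genuine repressor factors.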 Unmarked entries are inactive.

gene	mean z-score	z-score, replicate A	z-score, replicate B	z-score, replicate C
EAF2 (ELL associated factor 2)	-0.27	-0.31	-0.26	-0.23
AHRR (aryl hydrocarbon receptor repressor)	-0.29	-0.25	-0.36	-0.27
GPR83 (G protein-coupled receptor 83)	0.08	0.12	0.01	0.11
LOC283780 (retired record)	-0.06	-0.4	0.14	0.08
ZNF248 (zinc finger protein 248)	0.08	-0.28	-0.13	0.63
HMGXB4 (HMG-box containing 4)	1.68	2.25	1.39	1.41
LOC401198 (retired record)	-0.28	0.07	-0.44	-0.46
RXRB (retinoid X receptor beta)	-0.34	-0.28	-0.3	-0.45
COMMD10 (COMM domain containing 10)	-0.52	-0.34	-0.45	-0.76
LOC402524 (retired record)	0.34	0.01	0.33	0.67
LINC00615 (long independently transcribed non-coding RNA 615)	-1.39	-1.09	-1.5	-1.57
SYT13 (synaptotagmin 13)	-1.12	-1.01	-1.33	-1.03
USP2 (ubiquitin specific peptidase 2)	-1.73	-1.73	-1.64	-1.83
FOXF1 (forkhead box F1)	-1.14	-1.54	-1	-0.87
TTYH1 (tweety family member 1)	0.29	0.29	0.55	0.03
SARDH (sarcosine dehydrogenase)	-1.73	-1.42	-1.53	-2.23
AKR7L (aldo-keto reductase family 7 like (gene/pseudogene))	-0.88	-0.9	-0.75	-0.98
ZNF638 (zinc finger protein 638)	-0.44	-0.39	-0.68	-0.26
FTHL17 (ferritin heavy chain like 17)	-0.59	-0.3	-0.74	-0.73
EYS (EGF-like photoreceptor maintenance factor)	-0.53	-0.81	-0.33	-0.44
CIMIP4 (ciliary microtubule inner protein 4)	-0.71	-0.56	-0.93	-0.65
LAMP5 (lysosome associated membrane protein 5)	0.03	-0.02	0.06	0.03
UNC119 (unc-119 lipid binding chaperone)	-0.56	-0.46	-0.86	-0.35
CEP85L (centrosomal protein 85L)	0.74	0.9	0.76	0.57
REG4 (regenerating family member 4)	-0.3	-0.38	0	-0.53
HOXA7 (homeobox A7)	-0.43	-0.73	-0.24	-0.32
LOC402663 (retired record)	0.01	-0.16	0.29	-0.11
HTR5A (5-hydroxytryptamine receptor 5A)	1.19	1.39	0.94	1.25
LYST (lysosomal trafficking regulator)	-0.72	-0.8	-0.71	-0.65
KRT6B (keratin 6B)	1.14	1.01	1.11	1.31
CATSPERH (catsper channel auxiliary subunit eta)	-2.07	-2.03	-1.9	-2.27
ZNF658 (zinc finger protein 658)	-0.6	-0.78	-0.48	-0.53
SEMA3F (semaphorin 3F)	0.34	0.26	0.74	0.03
CWC15 (CWC15 spliceosome associated protein)	-0.89	-0.33	-1.23	-1.1
RPP21 (ribonuclease P subunit p21)	-2.73	-2.13	-3.07	-3.01
TTC28 (tetratricopeptide repeat domain 28)	-0.39	-0.51	-0.46	-0.19
PPAN (peter pan homolog)	-1.37	-1.23	-1.44	-1.45
PSMG3 (proteasome assembly chaperone 3)	0.6	0.39	0.77	0.63
SIT1 (signaling threshold regulating transmembrane adaptor 1)	-0.06	-0.21	0.01	0.03
SORT1 (sortilin 1)	-1.17	-1.34	-1.26	-0.92
LOC284527 (retired record)	-0.01	0.53	-0.25	-0.31
FARS2 (phenylalanyl-tRNA synthetase 2, mitochondrial)	0.48	0.65	0.64	0.14
GPATCH1 (G-patch domain containing 1)	2.53 (active)	2.83	2.4	2.36
MYBL1 (MYB proto-oncogene like 1)	-0.99	-0.91	-1.23	-0.83
UBQLN2 (ubiquilin 2)	0.97	1.29	0.91	0.72
FCRLB (Fc receptor like B)	-0.07	0.17	-0.16	-0.23
LINC00656 (long independently transcribed non-coding RNA 656)	0.27	0.56	0.18	0.07
UGT3A2 (UDP glycosyltransferase family 3 member A2)	-0.34	-0.34	-0.08	-0.6
SPATA12 (spermatogenesis associated 12)	-1.41	-0.98	-1.58	-1.67
CSHL1 (chorionic somatomammotropin hormone like 1)	1.04	0.83	1.1	1.2
TEAD3 (TEA domain transcription factor 3)	-0.49	-0.41	-0.48	-0.58
ZNF775 (zinc finger protein 775)	0.07	0.2	0.02	-0.01
SLC25A18	1.89	1.68	1.79	2.19
ZNF529 (zinc finger protein 529)	-0.1	-0.31	0.11	-0.08
PUS3 (pseudouridine synthase 3)	0.11	0.68	-0.31	-0.03
HABP4 (hyaluronan binding protein 4)	0.27	0.04	0.26	0.52
TBC1D5 (TBC1 domain family member 5)	0.38	0.2	0.37	0.58
